Experimental data from patent publication US20150299276A1, “α-conotoxin peptide, pharmaceutical composition and use thereof” (published 2015).

Target: mouse muscle type nAChR (α1β1δε) (mouse), P04756
Assay: cell-based or functional assay

Binder: GCCSDPPCRNKHPDLCG [α-conotoxin TxIB/Txd4(G)]
- IC50 (half-blocking dose) of ACh-gated current, Xenopus oocytes: > 10 µM
